A mixed list of measured activities; the numbers were collected in NIAID ChemDB.

All rows: tests in culture; species: Mycobacterium avium

Neighbouring rows are from separate reports.

{"SMILES": "Cn1cnnc1SCc1cccc(Br)c1", "strain or isolate": "MY330/88", "endpoint": "MIC", "result": "1000 µM"}
{"SMILES": "O=C(NNC(=O)c1ccncc1)Nc1ccc(Br)c(F)c1", "strain or isolate": "MY330/88", "endpoint": "MIC100", "read by": "broth dilution", "conditions": "14 d", "result": ">125 µM"}
{"SMILES": "COc1ccc2oc(=O)n(-c3cccc(F)c3)c(=S)c2c1", "strain or isolate": "MY330/88", "endpoint": "MIC", "conditions": "21 d", "result": "125 µM"}
{"SMILES": "Cc1cccc(C(N)=Nc2nc(-c3ccccn3)cc3ccccc23)c1", "strain or isolate": "LR-25", "endpoint": "MIC", "result": "2 µg/mL"}
{"SMILES": "Cc1ccc2oc(=S)n(-c3ccc(Br)cc3)c(=S)c2c1", "strain or isolate": "MY330/88", "endpoint": "MIC", "conditions": "21 d", "result": "4 µM"}
{"SMILES": "O=c1[nH]c(=O)n([C@H]2C[C@H](O)[C@@H](CO)O2)cc1I", "strain or isolate": "ATCC 25291", "endpoint": "EC50", "result": ">50 µg/mL"}
{"SMILES": "COc1ccc2oc(=O)n(-c3ccc(Cl)cc3)c(=O)c2c1", "strain or isolate": "CNCTC MY330/88", "endpoint": "MIC", "result": "62.5 µM"}
{"SMILES": "CCOc1ccccc1NC(=O)OCCN(C)C", "strain or isolate": "MY330/88", "endpoint": "MIC", "result": "1000 µM"}
{"SMILES": "O=[N+]([O-])c1ccccc1CSc1ncn[nH]1", "strain or isolate": "MY330/88", "endpoint": "MIC", "result": "500 µM"}
{"SMILES": "O=C(NNC(=O)c1ccncc1)Nc1ccc(Cl)c(Cl)c1", "strain or isolate": "MY330/88", "endpoint": "MIC100", "read by": "broth dilution", "conditions": "14 d", "result": ">125 µM"}
{"SMILES": "CC(=O)OC[C@H]1O[C@@H](n2cc(C(F)CBr)c(=O)[nH]c2=O)C[C@@H]1OC(C)=O", "strain or isolate": "ATCC 25291", "endpoint": "EC90", "result": "1–5 µg/mL"}
{"SMILES": "O=c1oc2ccc(Cl)cc2c(=O)n1-c1ccccc1", "strain or isolate": "CNCTC MY330/88", "endpoint": "MIC", "result": "32 µM"}
{"SMILES": "O=c1[nH]c(=O)n([C@@H]2O[C@H](CO)[C@@H](O)[C@H]2O)cc1F", "strain or isolate": "ATCC 25291", "endpoint": "EC50", "result": ">50 µg/mL"}
{"SMILES": "CCCCCOc1ccccc1NC(=O)OCCN1CCCCC1", "strain or isolate": "MY330/88", "endpoint": "MIC", "result": "125 µM"}
{"SMILES": "CCCCCCc1ccc(NC(=O)NNC(=O)c2ccncc2)cc1", "strain or isolate": "MY330/88", "endpoint": "MIC100", "read by": "broth dilution", "conditions": "14 d", "result": "62.5 µM"}
{"SMILES": "CCCCOc1ccccc1NC(=O)OCC[NH+]1CCCC1", "strain or isolate": "MY330/88", "endpoint": "MIC", "result": "125 µM"}
{"SMILES": "Cc1cccc(CSc2nc3ccc(C)cc3[nH]2)c1", "strain or isolate": "MY330/88", "endpoint": "MIC", "result": "62 µM"}
{"SMILES": "Fc1ccc(-n2c(=S)oc3ccc(Cl)cc3c2=S)cc1", "strain or isolate": "MY330/88", "endpoint": "MIC", "conditions": "21 d", "result": "16 µM"}
{"SMILES": "CCc1cc(C(N)=S)ccn1", "strain or isolate": "3350-4", "endpoint": "MBC", "result": "80 µg/mL"}
{"SMILES": "CC(C)(C)n1cc(C(=O)O)c(=O)c2cc(F)c(N3CCNCC3)nc21", "strain or isolate": "RG4", "endpoint": "MIC", "result": "0.5 µg/mL"}
{"SMILES": "Fc1cccc(-n2c(=S)oc3ccc(Br)cc3c2=S)c1", "strain or isolate": "MY330/88", "endpoint": "MIC", "conditions": "21 d", "result": "32 µM"}
{"SMILES": "CC(C)(C)c1ccc(NC(=O)NNC(=O)c2ccncc2)cc1", "strain or isolate": "MY330/88", "endpoint": "MIC100", "read by": "broth dilution", "conditions": "14 d", "result": "62.5 µM"}
{"SMILES": "Cc1ccc2[nH]c(=S)[nH]c2c1", "strain or isolate": "MY330/88", "endpoint": "MIC", "result": "500 µM"}
{"SMILES": "Cc1ccc2oc(=O)n(-c3cccc(Cl)c3)c(=S)c2c1", "strain or isolate": "MY330/88", "endpoint": "MIC", "conditions": "14 d", "result": "4 µM"}
{"SMILES": "COc1ccc2oc(=O)n(-c3ccc(C#N)cc3)c(=O)c2c1", "strain or isolate": "CNCTC MY330/88", "endpoint": "MIC", "result": "32 µM"}
{"SMILES": "S=c1oc2ccc(Br)cc2c(=S)n1-c1ccc(Br)cc1", "strain or isolate": "MY330/88", "endpoint": "MIC", "conditions": "14 d", "result": "32 µM"}
{"SMILES": "Cc1cn([C@H]2CC[C@@H](CO)O2)c(=O)[nH]c1=O", "strain or isolate": "ATCC 25291", "endpoint": "EC50", "result": ">50 µg/mL"}
{"SMILES": "CC(C)N=c1cc2n(-c3ccc(Cl)cc3)c3ccccc3nc-2cc1Nc1ccc(Cl)cc1", "strain or isolate": "34540", "endpoint": "MIC", "result": "5 µg/mL"}
{"SMILES": "Cc1cccc(CSc2ncn[nH]2)c1", "strain or isolate": "MY330/88", "endpoint": "MIC", "result": "250 µM"}
{"SMILES": "S=c1oc2ccc(Br)cc2c(=S)n1-c1ccccc1", "strain or isolate": "MY330/88", "endpoint": "MIC", "conditions": "21 d", "result": "16 µM"}
{"SMILES": "O=c1oc2ccc(Br)cc2c(=O)n1-c1ccc(Cl)cc1", "strain or isolate": "CNCTC MY330/88", "endpoint": "MIC", "result": "16 µM"}
{"SMILES": "Fc1ccc2oc(=S)n(-c3ccc(C(F)(F)F)cc3)c(=S)c2c1", "strain or isolate": "MY330/88", "endpoint": "MIC", "conditions": "21 d", "result": "32 µM"}
{"SMILES": "Cc1ccc2nc(SCc3c(F)cccc3Cl)[nH]c2c1", "strain or isolate": "MY330/88", "endpoint": "MIC", "result": "8 µM"}
{"SMILES": "O=[N+]([O-])c1cc(CSc2ncn[nH]2)cc([N+](=O)[O-])c1", "strain or isolate": "MY330/88", "endpoint": "MIC", "result": "1000 µM"}
{"SMILES": "CCCCOc1cccc(NC(=O)OCCN2CCCCCC2)c1", "strain or isolate": "MY330/88", "endpoint": "MIC", "result": "62.5 µM"}
{"SMILES": "Cc1ccc2nc(SCc3cc([N+](=O)[O-])cc([N+](=O)[O-])c3)[nH]c2c1", "strain or isolate": "MY330/88", "endpoint": "MIC", "result": "32 µM"}
{"SMILES": "O=[N+]([O-])c1cccc(CSc2ncn[nH]2)c1", "strain or isolate": "MY330/88", "endpoint": "MIC", "result": "1000 µM"}
{"SMILES": "CCCOc1ccccc1NC(=O)OCCN1CCOCC1", "strain or isolate": "MY330/88", "endpoint": "MIC", "result": "1000 µM"}
{"SMILES": "O=C(NNC(=O)c1ccncc1)Nc1ccc(Br)cc1F", "strain or isolate": "MY330/88", "endpoint": "MIC100", "read by": "broth dilution", "conditions": "21 d", "result": ">125 µM"}
{"SMILES": "CCOc1c(N2CCC(C(C)(C)N)C2)c(F)cc2c(=O)c(C(=O)O)cn(C3CC3)c12", "strain or isolate": "RG4", "endpoint": "MIC", "result": "0.5 µg/mL"}
{"SMILES": "CCCCCCCCCCOc1ccc(NC(=O)OCCN2CCOCC2)cc1", "strain or isolate": "MY330/88", "endpoint": "MIC", "result": "8 µM"}

Repeating the first 4 entries:

SMILES,strain or isolate,endpoint,read by,conditions,result
Cn1cnnc1SCc1cccc(Br)c1,MY330/88,MIC,-,-,1000 µM
O=C(NNC(=O)c1ccncc1)Nc1ccc(Br)c(F)c1,MY330/88,MIC100,broth dilution,14 d,>125 µM
COc1ccc2oc(=O)n(-c3cccc(F)c3)c(=S)c2c1,MY330/88,MIC,-,21 d,125 µM
Cc1cccc(C(N)=Nc2nc(-c3ccccn3)cc3ccccc23)c1,LR-25,MIC,-,-,2 µg/mL

ECn: concentration that inhibits the pathogen or its effect by n%. A number after MIC or MFC names an inhibition level or a share of isolates. An empty or dashed field is not shown. a–b is a range or a potency band.